Our source for the IC50 of inhibition of platelet aggregation values is publication PMC5388508, “Effects of the RGD loop and C-terminus of rhodostomin on regulating integrin αIIbβ3 recognition” (2017).

Test [1] has as its target integrin αIIbβ3 of human platelets (human (endogenous in platelets)) (UniProt P08514).
Test [2] has the same target. This is another data set of the same source.

Where two headings read alike, the source gives them in different places.

Take “Rho ^48PRGDMP-^65PR mutant (domain or fragment)”: in test [1], the IC50 of inhibition of platelet aggregation was determined as 155 nM.
Turning to “Rho ^48ARGDWN-^65PR mutant (domain or fragment)”, the IC50 of inhibition of platelet aggregation in test [2] is 171 nM.
As for “Rho ^48ARGDWN-^65PRY mutant (domain or fragment)”, in test [2], the IC50 of inhibition of platelet aggregation was determined as 155 nM.
